Results of unrelated studies side by side (data: NIAID ChemDB).

Common to all: growth or infection tests; organism: HIV-1

Blank or dashed fields: not listed here.

Clc1nc(Cl)c2c(n1)Oc1nc(Cl)nc(Cl)c1C2c1ccccc1 ; strain: L1 ; read by: cytopathic effect ; read-out: EC50 ; cell line: MT-4 ; value: 17.5 µM
Nc1ncnc2c1ncn2[C@@H]1C[C@H](CO)CS1 ; read by: cytopathic effect ; read-out: EC50 ; cell line: MT-4 ; value: >19.15 µM
CCC(Cc1ccccc1)c1cc(O)c(C(CC)c2ccccc2)c(=O)o1 ; strain: IIIB ; read-out: EC50 ; cell line: MT-4 ; value: 3 µM
Cc1cn([C@@H]2C[C@H](CO)CS2)c(=O)[nH]c1=O ; read by: cytopathic effect ; read-out: EC50 ; cell line: MT-4 ; value: >100 µM
CC(=O)N[C@H](C(=O)N[C@@H](Cc1ccccc1)C[C@H](O)[C@H](Cc1ccccc1)NC(=O)[C@@H]1CN(c2ccc(F)c(F)c2)C(=O)O1)C(C)C ; strain: NL4-3 ; read by: cytopathic effect / MTT ; read-out: EC50 ; cell line: MT-4 ; value: 0.36 µM
CC(C)(C)C(=O)SCCCCOP(=O)(OCCCCSC(=O)C(C)(C)C)OC[C@@H]1CC[C@H](n2cnc3c(N)ncnc32)O1 ; strain: LAI ; read by: RT activity ; read-out: EC50 ; cell line: CEM + CEM-SS ; value: >10 µM
Cc1cc(/C=C/C#N)cc(C)c1Oc1ccnc(S(=O)(=O)CC(=O)Nc2ccc(F)cc2)n1 ; changes: Y181C ; read by: MTT ; read-out: EC50 ; cell line: MT-4 ; value: 0.045 µM
CC(C)=CCN1Cc2cc(Cl)cc3[nH]c(=S)n(c23)C[C@@H]1C ; changes: RT-L74V K101E ; read-out: EC95 ; cell line: MT-4 ; value: >3 µM
Cc1cn([C@H]2C[C@H](N=[N+]=[N-])[C@@H](CO)O2)c(=O)[nH]c1=O ; strain: EVK ; read by: p24 ; read-out: EC50 ; cell line: MT-4 ; value: <10 µM
O=C(O[C@H]1CN2CC[C@H](O)[C@@H]2[C@@H](O)[C@@H]1O)c1ccco1 ; strain: GB8 ; read by: syncytia ; read-out: EC50 ; cell line: JM ; value: 1 µg/mL
Nc1ccn([C@H]2CC[C@@H](CO)O2)c(=O)n1 ; changes: RT-L74V ; strain: L74V(RT-L74V) ; read by: p24 ; read-out: EC50 ; cell line: MT-2 ; value: 1 µM
Cc1cn([C@H]2C[C@H](N=[N+]=[N-])[C@@H](COC(=O)c3ccc[n+](C)c3)O2)c(=O)[nH]c1=O ; strain: IIIB Laboratory strain ; read by: cytopathic effect ; read-out: EC50 ; cell line: MT-4 ; value: 0.013 µM
CCCCCCCSc1nsc(NC(=O)Nc2ccccc2)n1 ; changes: AMD3100-resistant ; strain: NL4-3 ; read by: cytopathic effect ; read-out: EC50 ; cell line: MT-4 ; value: 19.1 µM
Cc1cn([C@H]2C[C@H](N=[N+]=[N-])[C@@H](COP(=O)(OCCCCSC(=O)C(C)(C)C)OCCCCSC(=O)C(C)(C)C)O2)c(=O)[nH]c1=O ; strain: LAI ; read by: RT activity ; read-out: EC50 ; cell line: CEM + CEM TK- ; value: >10 µM
CC(C)CN(C[C@@H](O)[C@H](Cc1ccccc1)NC(=O)O[C@H]1CCOC1)S(=O)(=O)c1ccc(N)cc1 ; changes: PR-L10R M46I L63P A71V V82T I84V ; strain: 052-52 PI-resistant ; read by: RT activity ; read-out: EC50 ; cell line: PBMC ; value: 0.535 µM
O=c1[nH]cnc2c1ncn2[C@H]1CC[C@@H](CO)O1 ; strain: BRU ; read by: cytopathic effect / XTT ; read-out: EC50 ; cell line: CEM + CEM-SS ; value: 2.3 µg/mL
Nc1ccn([C@@H]2C[C@H](CO)CS2)c(=O)n1 ; read by: cytopathic effect ; read-out: EC50 ; cell line: MT-4 ; value: >100 µM
Cc1cc(Cl)cc(C)c1Oc1nn(Nc2ccc(Cl)cc2)c(=O)c2ccccc12 ; strain: BaL ; read by: luciferase ; read-out: EC50 ; cell line: TZM-bl ; value: >10 µM
CC(=O)Oc1ccc(/C=C/C(=O)O[C@@H](C)[C@H](C)OC(=O)/C=C/c2ccc(OC(C)=O)c(OC(C)=O)c2)cc1OC(C)=O ; read by: cytopathic effect / XTT ; read-out: EC50 ; cell line: CEM + CEM-SS ; value: >5.45 µM
O=c1[nH]cnc2c1ncn2[C@H]1CC[C@@H](CO)O1 ; changes: RT-L74V ; strain: L74V(RT-L74V) ; read by: p24 ; read-out: EC50 ; cell line: MT-2 ; value: 3.2 µM
O=c1[nH]c2c(c(=O)[nH]1)C(c1ccc(I)cc1)c1c([nH]c(=O)[nH]c1=O)O2 ; strain: L1 ; read by: cytopathic effect ; read-out: EC50 ; cell line: MT-4 ; value: >276 µM
Cc1cccc2c1OP(=O)(OC[C@@H]1C=C[C@H](n3cnc4c(=O)[nH]cnc43)O1)OC2 ; read-out: EC50 ; cell line: CEM + CEM/0 ; value: 5.33 µM
Cc1ccccc1CNC(=O)[C@H]1N(C(=O)[C@@H](O)[C@H](Cc2ccc3c(c2)OCO3)NC(=O)c2cccc(O)c2C)CSC1(C)C ; strain: IIIB ; read by: cytopathic effect / XTT ; read-out: EC50 ; cell line: CEM ; setting: 15% FBS ; value: 0.0048 µM
O=C1c2ccccc2C(=O)N1CCOC(=S)N(C(=O)c1cccs1)c1ccc(Cl)cc1 ; strain: IIIB ; read by: cytopathic effect / MTT ; read-out: EC50 ; cell line: C8166 ; value: <0.008 µM
COc1ccc(C[C@H](NC(=O)c2cccc(O)c2C)[C@H](O)C(=O)N2CSC(C)(C)[C@H]2C(=O)NCc2ccccc2C)cc1 ; strain: IIIB ; read by: RT activity ; read-out: EC50 ; cell line: PBMC ; value: 0.0066 µM
Cn1c(C(OC(C)(C)C)C(=O)O)c(-c2ccc(CF)cc2F)c2ccccc2c1=O ; read by: luciferase ; read-out: EC50 ; cell line: MT-4 ; value: 1.22 µM
Nc1cccc(CN2C(=O)N(Cc3cccc(N)c3)[C@H](Cc3ccccc3)[C@H](O)[C@@H](O)[C@H]2Cc2ccccc2)c1 ; strain: RF ; read-out: EC50 ; cell line: MT-2 ; value: <0.125 µM
C1CNCCNCCCN(CCCN2CCCNCCNCCCNCC2)CCNC1 ; strain: NL4-3 ; read by: cytopathic effect / MTT ; read-out: EC50 ; cell line: MT-4 ; value: 0.32 µg/mL
CC1(C)Oc2ccc3ccc(=O)oc3c2[C@@H](OC(=O)C23CCC(C)(C(=O)O2)C3(C)C)[C@H]1OC(=O)C12CCC(C)(C(=O)O1)C2(C)C ; read-out: EC50 ; cell line: H9 ; value: 0.0004 µM
COC(=O)[C@@]12CC(OC)C3(Cl)C(C)(C=C4C5=C[C@H](O)[C@@H]6O[C@]6(CC=C(C)C)[C@@H]5OO[C@]43C13OC(=O)c1c(O)cc(C)cc1O3)C2 ; read-out: EC50 ; cell line: C8166 ; value: 6.9 µM
CC(C)CN(C[C@@H](O)[C@H](Cc1ccc(Oc2ccncn2)cc1)NC(=O)O[C@H]1CO[C@H]2OCC[C@H]21)S(=O)(=O)c1ccc2c(c1)OCO2 ; strain: HXB2 ; read by: cytopathic effect ; read-out: EC50 ; cell line: MT-4 ; value: 0.002 µM
O=C(O)P(=O)(O)O ; read by: syncytia ; read-out: EC50 ; cell line: HT4 + HT4-6C ; value: 135 µM
COc1cccc(C[C@H](NC(=O)c2cccc(O)c2C)[C@H](O)C(=O)N2CSC(C)(C)[C@H]2C(=O)NCc2c(C)cccc2C)c1 ; strain: IIIB ; read by: RT activity ; read-out: EC50 ; cell line: PBMC ; value: 0.001 µM
Nc1cccc(CN2C(=O)N(Cc3cccc(C(=O)Nc4nc5ccccc5[nH]4)c3)[C@H](Cc3ccccc3)[C@H](O)[C@@H](O)[C@H]2Cc2ccccc2)c1 ; strain: RF ; read-out: EC50 ; cell line: MT-2 ; value: <0.0132 µM
Cc1cn([C@H]2C[C@H](N=[N+]=[N-])[C@@H](CO)O2)c(=O)[nH]c1=O ; strain: LAI ; read by: RT activity ; read-out: EC50 ; cell line: CEM + CEM TK- ; value: >100 µM
Cc1cn([C@H]2C[C@H](N=[N+]=[N-])[C@@H](CO)O2)c(=O)[nH]c1=O ; strain: HXB2D ; read by: p24 ; read-out: EC50 ; cell line: MT-2 ; value: 0.016 µM
Cc1ccccc1CNC(=O)[C@H]1N(C(=O)[C@@H](O)[C@H](Cc2ccccc2)NC(=O)c2cccc(O)c2C)CSC1(C)C ; strain: IIIB ; read by: cytopathic effect / XTT ; read-out: EC50 ; cell line: CEM ; setting: 50% human serum ; value: 0.052 µM
C[C@H](OC(=O)/C=C/c1ccc(O)c(O)c1)[C@H](C)OC(=O)/C=C/c1ccc(O)c(O)c1 ; read by: cytopathic effect / XTT ; read-out: EC50 ; cell line: CEM + CEM-SS ; value: >3.3 µM
Cc1ccnc2c1NC(=O)c1cccnc1N2C1CC1 ; strain: NL4-3 ; read by: cytopathic effect ; read-out: EC50 ; cell line: MT-4 ; value: 0.06 µM
O=C(O[C@H]1CN2CC[C@H](O)[C@@H]2[C@@H](O)[C@@H]1O)c1ccccc1 ; strain: GB8 ; read by: syncytia ; read-out: EC50 ; cell line: JM ; value: 1 µg/mL
Cc1cn([C@H]2C[C@H](N=[N+]=[N-])[C@@H](CSCCC(=O)O)O2)c(=O)[nH]c1=O ; strain: IIIB ; read-out: EC50 ; cell line: MT-4 ; value: 0.31 µg/mL
O=C1c2ccccc2C(=O)N1CCOC(=S)N(C(=O)c1ccccc1)c1ccc(Cl)cc1 ; changes: RT-K103R V179D P225H ; strain: IIIB ; read by: cytopathic effect / MTT ; read-out: EC50 ; cell line: MT-4 ; value: >100 µM
Cc1cc(C#N)cc(C)c1Oc1nc(Nc2ccc(C#N)cc2)nc(N)c1Br ; changes: L100I ; strain: IIIB ; read by: MTT ; read-out: EC50 ; cell line: MT-4 ; value: 0.007 µM
S=C(NCCc1ccccn1)Nc1ccc(Br)cn1 ; changes: RT-K103R V179D P225H ; strain: IIIB ; read by: cytopathic effect / MTT ; read-out: EC50 ; cell line: MT-4 ; value: >100 µM
CC(=O)Oc1ccc(/C=C/C(=O)NCCOC(=O)/C=C/c2ccc(OC(C)=O)c(OC(C)=O)c2)cc1OC(C)=O ; read by: cytopathic effect / XTT ; read-out: EC50 ; cell line: CEM + CEM-SS ; value: >14.8 µM
O=C1c2ccccc2C(=O)N1CCOC(=S)N(C(=O)c1ccc(Cl)cc1)c1ccc(Cl)cc1 ; changes: RT-K103N Y181C ; strain: A17 ; read by: cytopathic effect / MTT ; read-out: EC50 ; cell line: MT-4 ; value: >100 µM
COC(=O)N[C@H](C(=O)N[C@@H](Cc1ccccc1)C[C@H](O)[C@H](Cc1ccccc1)NC(=O)[C@@H]1CN(c2ccccc2)C(=O)O1)C(C)(C)C ; read by: MTT ; read-out: EC50 ; cell line: MT-4 ; value: 1.03 µM
O=C1N[C@H](Cc2ccccc2)[C@H](O)CN[C@H]1Cc1ccccc1 ; strain: IIIB ; read by: XTT ; read-out: EC90 ; cell line: MT-2 ; value: ≤10 µg/mL
Cc1cc(-c2ccc(C#N)cc2)cc(C)c1Oc1ccnc(S(=O)(=O)CC(=O)Nc2ccc(C#N)cc2)n1 ; changes: F227L V106A ; strain: IIIB ; read by: MTT ; read-out: EC50 ; cell line: MT-4 ; value: 0.642 µM
OC[C@H]1NC[C@H](O)[C@@H](O)[C@@H]1O ; strain: CLB 32 ; read by: syncytia ; read-out: EC50 ; cell line: U-937 ; value: <1000 µM
CC(C)(C)NC(=O)[C@@H]1C[C@@H]2CCCC[C@@H]2CN1C[C@@H](O)[C@H](Cc1ccccc1)NC(=O)[C@H](CC(N)=O)NC(=O)c1ccc2ccccc2n1 ; read by: MTT ; read-out: EC50 ; cell line: MT-4 ; value: 0.01 µM
CCCCCCCCOCCCOP(=O)(O)C(=O)O ; read by: syncytia ; read-out: EC50 ; cell line: HT4 + HT4-6C ; value: 44 µM
Cc1ccnc2c1NC(=O)c1cccnc1N2C1CC1 ; changes: Y188L ; strain: IIIB ; read by: MTT ; read-out: EC50 ; cell line: MT-4 ; value: >15.9 µM
CCCCCCCCCCCCCOCCCOP(=O)(O)C(=O)O ; read by: syncytia ; read-out: EC50 ; cell line: HT4 + HT4-6C ; value: 7.2 µM
OCCc1ccc(O)c(O)c1 ; strain: IIIB ; read by: p24 ; read-out: EC50 ; cell line: H9 ; value: 0.068 µM
CNc1ncnc2c1ncn2[C@@H]1C[C@H](CO)CS1 ; read by: cytopathic effect ; read-out: EC50 ; cell line: MT-4 ; value: >48.2 µM
Cc1cn([C@H]2C[C@H](N=[N+]=[N-])[C@@H](CO)O2)c(=O)[nH]c1=O ; strain: LAI ; read-out: EC50 ; cell line: MT-2 ; value: ~1 µM
CCCCCCCC/C=C\CCCCCCCCOCCCOP(=O)(O)C(=O)O ; read by: syncytia ; read-out: EC50 ; cell line: HT4 + HT4-6C ; value: 1.5 µM
COc1cccc(CN2C(=O)N(Cc3cccc(C(=O)Nc4cccc(C)n4)c3)[C@H](Cc3ccccc3)[C@H](O)[C@@H](O)[C@H]2Cc2ccccc2)c1 ; strain: RF ; read-out: EC50 ; cell line: MT-2 ; value: <0.0427 µM
CC(=O)Oc1ccc(/C=C/C(=O)OCCOC(=O)/C=C/c2ccc(OC(C)=O)c(OC(C)=O)c2)cc1OC(C)=O ; read by: cytopathic effect / XTT ; read-out: EC50 ; cell line: CEM + CEM-SS ; value: >6.7 µM
Nc1ccn([C@H]2C[C@H](CO)CS2)c(=O)n1 ; read by: cytopathic effect ; read-out: EC50 ; cell line: MT-4 ; value: >100 µM
O=C(Nc1ccccn1)c1cccc(CN2C(=O)N(Cc3cccc([N+](=O)[O-])c3)[C@H](Cc3ccccc3)[C@H](O)[C@@H](O)[C@H]2Cc2ccccc2)c1 ; strain: RF ; read-out: EC50 ; cell line: MT-2 ; value: <0.0975 µM

Repeating the final 4 entries:

compound,changes,strain,read by,read-out,cell line,setting,value
COc1cccc(CN2C(=O)N(Cc3cccc(C(=O)Nc4cccc(C)n4)c3)[C@H](Cc3ccccc3)[C@H](O)[C@@H](O)[C@H]2Cc2ccccc2)c1,,RF,,EC50,MT-2,,<0.0427 µM
CC(=O)Oc1ccc(/C=C/C(=O)OCCOC(=O)/C=C/c2ccc(OC(C)=O)c(OC(C)=O)c2)cc1OC(C)=O,,,cytopathic effect / XTT,EC50,CEM + CEM-SS,,>6.7 µM
Nc1ccn([C@H]2C[C@H](CO)CS2)c(=O)n1,,,cytopathic effect,EC50,MT-4,,>100 µM
O=C(Nc1ccccn1)c1cccc(CN2C(=O)N(Cc3cccc([N+](=O)[O-])c3)[C@H](Cc3ccccc3)[C@H](O)[C@@H](O)[C@H]2Cc2ccccc2)c1,,RF,,EC50,MT-2,,<0.0975 µM

Conditions beyond the fields shown may differ between rows. ECn is the concentration giving n% inhibition of infection, replication or growth.